Pooled drug test results. Numbers come from NIAID ChemDB, via PubChem.

All rows: tests in culture; species: Mycobacterium tuberculosis

Neighbouring rows are from separate reports.

smiles,strain,mutations,cells,read by,setting,read-out,dose,value
CCCCCCCCC(=O)N(C)C1C2CN3CCC(O2)C13,H37Rv,,,BACTEC,,inhibition,12.5 µg/mL,23%
CC1COc2c(N3CCN(C)CC3)c(F)cc3c(=O)c(C(=O)O)cn1c23,10 strains,,,,,MIC90,,2 µg/mL
O=c1[nH]c2cc(F)c(F)cc2nc1CBr,,,,,,EC50,,>12.5 µg/mL
CC(C)(C)Cc1nc(N)c2ncn([C@@H]3OC(COS(=O)(=O)NC(=O)CCCCC4SCC5NC(=O)NC54)[C@@H](O)[C@H]3O)c2n1.CCN(CC)CC,H37Rv,,,broth dilution,,MIC,,>100 µM
NNC(=O)c1ccncc1,T13704,,,,,MIC,,25 µM
CO/N=C1\CCCN(c2nc(=O)c3cc(C(F)(F)F)cc([N+](=O)[O-])c3s2)CC1,H37Rv,,,resazurin,,MIC90,,0.06 µg/mL
COC1=C[C@@H](C)[C@@H]2C[C@H]3OC(=O)C[C@H]4[C@](C)(O)[C@@H]5OCO[C@H]5[C@H]([C@@]2(C)C1=O)[C@@]34C,H37Rv,,,,,inhibition,12.5 µg/mL,9%
O=C(Cc1cccs1)N/N=C/c1cccs1,H37Rv (ATCC 27294),,,resazurin,,MIC,,>100 µg/mL
COC(=O)c1ccccc1S(=O)(=O)NC(=O)Nc1nc(C)cc(C)n1,T13704,,,,,MIC,,1.6 µM
O=c1[nH]c2cc([N+](=O)[O-])ccc2nc1CBr,,,,,,EC50,,>12.5 µg/mL
CCCCCCCCCCCCSCCCO[C@@H]1OC(COC(C)=O)[C@H](OC(C)=O)[C@H](O[C@@H]2OC(C)[C@H](OC(C)=O)[C@H](OC(C)=O)C2OC(C)=O)C1NC(C)=O,H37Rv,,,agar,,MIC,,>12.5 µg/mL
CO[C@H]1/C=C/O[C@@]2(C)Oc3c(C)c(O)c4c(O)c(c(/C=N/N5CCN(C)CC5)c(O)c4c3C2=O)NC(=O)/C(C)=C\C=C\[C@H](C)[C@H](O)[C@@H](C)[C@@H](O)[C@@H](C)[C@H](OC(C)=O)[C@@H]1C,P4145,,,,,MIC,,0.02 µM
CC1=CC(=O)[C@@H](O)[C@]2(C)[C@@H]3[C@]45COC(=O)[C@@]3(O)C(C)[C@@H]4CC(=O)O[C@@H]5C[C@@H]12,H37Rv,,,,,EC50,,>12.5 µg/mL
C1CCNCC1.S=C(S)N1CCCCC1,H37Rv,,VERO,,,MIC,,1.6 µg/mL
c1ccc(-c2ccc(CNc3ccc(N4CCSCC4)cc3)cc2)cc1,103471,,,,,MIC,,>16 µg/mL
C/C=C(/C)C(=O)OC1CC(C)(C)CC2C3=CCC4C5(C)CC[C@H](OC(C)=O)C(C)(C)C5CC[C@@]4(C)[C@]3(C)CC[C@@]12C(=O)O,H37Rv (streptomycin-resistant),,,,,MIC,,25 µg/mL
O=C(COc1ccc(Br)c2c1CCC2)N/N=C/c1cc2cc(F)ccc2[nH]c1=O,H37Rv,,,resazurin / visual reading,,MIC,,50 µg/mL
CC(=O)c1ccc(O)c(-c2csc(N/N=C(\C)c3cccnc3)n2)c1,H37Rv (ATCC 27294),,,resazurin,,EC90,,>100 µg/mL
O=C(Nc1cccc(N2CCSCC2)c1)c1ccc(-c2ccccc2)cc1,103471,,,,,MIC,,>16 µg/mL
CCOC(=O)NC(=S)[S][Sb]([S]C(=S)NC(=O)OCC)[S]c1nc2ccc(N=Nc3ccc(NS(=O)(=O)c4ccc(NC(=O)C(Cl)Cl)cc4)cc3)cc2s1,H37Rv,,,BACTEC,,MIC,,64 µg/mL
C[C@@H]1C[C@]23CCC4[C@](C)(CCC[C@]4(C)C(=O)O)C2CC[C@@]1(OC(=O)CCCCCCCCC(=O)O[C@H]1CC2[C@@]4(CCC5[C@@]2(C)CCC[C@@]5(C)C(=O)O)C[C@@H]1[C@@H](C)C4)C3,H37Rv,,,BACTEC,,MIC,,20 µg/mL
O=C(Nc1ccc(Cl)cc1)Nc1nnc2nc(C(C(=O)c3ccc(Cl)cc3Cl)c3nc4nnc(NC(=O)NC5C=CC(Cl)=CC5)n4[nH]c3=O)c(=O)[nH]n12,H37Rv,,,BACTEC,,inhibition,12.5 µg/mL,2%
c1ccc(-c2ccc(CNc3cccc(-n4ccnc4)c3)cc2)cc1,103471,,,,,MIC,,4 µg/mL
N=C(N)c1ccc(-c2ccc(-c3ccccc3)o2)cc1,H37Rv,,VERO,,,MIC,,>12.5 µg/mL
CN(Cc1cc(Br)cc(Br)c1N)C1CCCCC1,10 isolates,,,,,MIC,,6.25–12.5 µg/mL
C[C@@]12CCC[C@@]3(C)C(=O)OCCCOC(=O)CC(=O)OCCCOC(=O)[C@@]4(C)CCC[C@]5(C)C6CC[C@]7(C)C[C@@]6(CCC54)C[C@@H]7OC(=O)CCCCCCCC(=O)O[C@@H]4C[C@@]5(CCC13)C[C@]4(C)CCC52,H37Rv,,,BACTEC / radiometric,,MIC99,,1 µg/mL
C[C@H]1COc2c(N3CCN(C)CC3)c(F)cc3c(=O)c(C(=O)O)cn1c23,10 strains,,,,,MIC90,,1 µg/mL
CN(Cc1ccco1)NC(=O)C(=O)NCc1ccco1,H37Rv,,,BACTEC,,inhibition,12.5 µg/mL,-26%
CCC[C@@H]1C[C@@H](C(=O)N[C@@H]([C@H]2O[C@H](SC)[C@H](O)[C@@H](O)[C@H]2O)[C@H](C)Cl)N(C)C1,H37Ra,,,,,MIC,,<64 µg/mL
COC(=O)[C@]12OC[C@@]34[C@@H](CC5=C(C)C(=O)C(O)=C[C@]5(C)[C@H]3[C@@H](O)[C@@H]1O)OC(=O)[C@H](OC(=O)c1ccccc1)[C@@H]24,H37Rv,,,,,EC50,,>12.5 µg/mL
CC[n+]1c(-c2ccccc2)c2cc(N)ccc2c2ccc(N)cc21,H37Rv (ATCC 27294),,,PCR,,MIC,,64 µg/mL
Cn1c([N+](=O)[O-])cnc1-c1nnc(S(=O)Cc2ccc([N+](=O)[O-])cc2)s1,,,,,,MIC,,6.25 µg/mL
O=c1[nH]c2ccc(C(F)(F)F)cc2nc1CBr,,,,,,EC50,,>12.5 µg/mL
C=CCO[C@@H]1OC2COC(c3ccccc3)O[C@@H]2[C@H](O[C@@H]2OC(C)[C@H](OC(C)=O)[C@H](OC(C)=O)C2OC(C)=O)C1NC(C)=O,H37Rv,,,agar,,MIC,,6.25 µg/mL
O=[N+]([O-])c1oc2ccc3ccccc3c2c1CCO,H37Rv,,,BACTEC,,MIC,,0.78 µg/mL
NNC(=O)c1ccncc1,ATCC 27294,,,broth dilution,,MIC80,,0.2 µM
Cc1sc(N=C(Nc2ccccc2)Nc2ccccc2)nc1-c1ccccc1,H37Rv,,,resazurin,,inhibition,6.25 µg/mL,97%
COC1=C[C@@H](C)[C@@H]2C[C@H]3OC(O)C[C@H]4[C@](C)(O)[C@H](OC)[C@@H](O)[C@H]([C@@]2(C)C1=O)[C@@]34C,H37Rv,,,,,inhibition,12.5 µg/mL,8%
C=CC(C)(C)C12CC3C(=O)N/C(=C\c4cnc[nH]4)C(=O)N3C1Nc1ccccc12,H37Rv,,,BACTEC,,inhibition,12.5 µg/mL,10%
O=C(Cc1cccs1)N/N=C/c1cccc(F)c1,H37Rv (ATCC 27294),,,resazurin,,MIC,,>100 µg/mL
O=C(N/N=C/c1cc2cc(F)ccc2[nH]c1=O)c1ccncc1,H37Rv,,,resazurin / visual reading,,MIC,,25 µg/mL
CON=C1CCN(c2nc(=O)c3cc(C(F)(F)F)cc([N+](=O)[O-])c3s2)CC1,H37Rv,,,resazurin,,MIC90,,0.029 µg/mL
CC1COc2c(N3CCN(C)CC3)c(F)cc3c(=O)c(C(=O)O)cn1c23,Clinical isolates,,,,clinical isolate,MIC,,0.25 µg/mL
C[C@H]1COc2c(N3CCN(C)CC3)c(F)cc3c(=O)c(C(=O)O)cn1c23,Clinical isolate BRF 23,INH resistant,,resazurin,,MIC,,0.12 µg/mL
OC(CN1CCCCC1)c1ccc2oc3ccccc3c2c1,H37Rv,,,BACTEC,,MIC bound,,>12.5 µg/mL
O=c1nc(N2CC(=NOCc3ccccc3)C2)sc2c([N+](=O)[O-])cc(C(F)(F)F)cc12,16892 clinical isolate,,,resazurin,,MIC90,,0.016 µg/mL
CC1COc2c(N3CCN(C)CC3)c(F)cc3c(=O)c(C(=O)O)cn1c23,19000,Rifampicin-resistant,,broth dilution,,MIC80,,0.7 µM
CC(=O)Nc1ccc(/C=N/Nc2nc3ccccc3s2)cc1,H37Rv,,,BACTEC,,MIC,,≥12.5 µg/mL
COC1=C[C@@H](C)[C@@H]2C[C@H]3OC(=O)C[C@@H]4[C@@]3(C)[C@H]([C@H](O)C[C@@]4(C)C(=O)C3(C)COC(=O)C3)[C@@]2(C)C1=O,H37Rv,,,,,inhibition,12.5 µg/mL,4%
O=C(Cc1cccs1)N/N=C/c1ccc(Br)cc1,H37Rv (ATCC 27294),,,resazurin,,MIC,,>100 µg/mL
O=c1nc(N2CCC(=NOCc3ccccc3)CC2)sc2c([N+](=O)[O-])cc(C(F)(F)F)cc12,H37Rv,,,resazurin,,MIC90,,<0.016 µg/mL
Fc1ccc(N2CSC(=S)N(c3ccc(F)cc3F)C2)c(F)c1,H37Rv,,,BACTEC,,MIC bound,,>12.5 µg/mL
O=C(Cc1cccs1)N/N=C/c1ccccc1[N+](=O)[O-],H37Rv (ATCC 27294),,,resazurin,,MIC,,>100 µg/mL
CC(=O)NC1[C@H](OCCCSC23CC4CC(CC(C4)C2)C3)OC(COC(C)=O)[C@H](OC(C)=O)[C@@H]1O[C@@H]1OC(C)[C@H](OC(C)=O)[C@H](OC(C)=O)C1OC(C)=O,H37Rv,,,agar,,MIC,,12.5 µg/mL
COC1=C[C@@H](C)[C@@H]2C[C@H]3OC(O)C[C@H]4[C@](C)(O)[C@H](OC)[C@@H](OC(C)=O)[C@H]([C@@]2(C)C1=O)[C@@]34C,H37Rv,,,,,EC50,,>12.5 µg/mL
O=C(Cc1cccs1)N/N=C/c1cc([N+](=O)[O-])ccc1O,H37Rv (ATCC 27294),,,resazurin,,MIC,,81.9 µM
CN[C@@H]1[C@H](O[C@H]2[C@H](O[C@H]3[C@H](O)[C@@H](O)[C@H](N=C(N)N)[C@@H](O)[C@@H]3N=C(N)N)O[C@@H](C)[C@]2(O)C=O)O[C@@H](CO)[C@H](O)[C@H]1O,U115,,,,,MIC,,0.25 µg/mL
Cc1c(N=Nc2ccc(Br)cc2)c(-c2ccccc2)nn1C(=S)S,H37Rv,,,BACTEC,,MIC bound,,≤12.5 µg/mL
O=[N+]([O-])c1ccc(CS(=O)c2nnc(-c3ccc([N+](=O)[O-])s3)s2)cc1,,,,,,MIC,,>6.25 µg/mL
COc1cc2cc3c4ccccc4cc[n+]3c(C)c2cc1OC,H37Rv,,,BACTEC,,inhibition,12.8 µg/mL,88%
O=C(Cc1cccs1)N/N=C/c1ccc(O)c(Cl)c1,H37Rv (ATCC 27294),,,resazurin,,MIC,,169.6 µM
CCON=C1CCN(c2nc(=O)c3cc(C(F)(F)F)cc([N+](=O)[O-])c3s2)CC1,H37Rv,,,resazurin,,MIC90,,0.232 µg/mL
CCOC(=O)c1oc(C)nc1C,H37Rv,,,BACTEC,,MIC bound,,>12.5 µg/mL
CN(CC1CCCCC1)C1CCN(c2nc(=O)c3cc(C(F)(F)F)cc([N+](=O)[O-])c3s2)CC1,16892 clinical isolate,,,resazurin,,MIC90,,0.016 µg/mL
CN1C(=S)C2=C(c3ccccc3)N(C)C(=S)C2=C1c1ccccc1,H37Rv,,,BACTEC,,inhibition,12.5 µg/mL,0%
Cn1c([N+](=O)[O-])cnc1-c1nnc(S(=O)Cc2ccccc2[N+](=O)[O-])s1,,,,,,MIC,,>6.25 µg/mL
COc1ccn(C2OCCC(OC(C)=O)C2O)c(=O)n1,H37Rv,,,BACTEC,,inhibition,12.5 µg/mL,55%
COc1nc2ccc(Br)cc2cc1[C@@H](c1ccccc1)[C@@](O)(CCN(C)C)c1cccc2ccccc12,,Bedaquiline-resistant A63P,,broth dilution,,MIC80,,>10 µM
CC[C@@H](O)C[C@H]1CCC[C@@]2(C[C@@H]3OC(=O)/C=C/[C@@](C)(O)[C@@H](O)[C@H](C)[C@@H](O)[C@H](OC4CCC(N(C)C)C(C)O4)[C@@H](O)[C@](C)(O)CCCCC/C=C/[C@@H]4CC(C)(C)O[C@@]4(O)C[C@H](O2)[C@H]3C)O1,H37Rv,,,resazurin,,inhibition,6.25 µg/mL,1%
Cn1c([N+](=O)[O-])cnc1-c1nnc(S(=O)(=O)Cc2cccc([N+](=O)[O-])c2)s1,,,,,,MIC,,6.25 µg/mL
Cc1cc(S(=O)(=O)Nc2nnc3ccccn23)c(S)cc1Cl,H37Rv,,,BACTEC,,inhibition,12.5 µg/mL,7%
CN1CCN(c2cccc(NCc3ccc(Cl)cc3)c2)CC1,103471,,,,,MIC,,>16 µg/mL

The first 9 rows once more:

smiles | strain | mutations | cells | read by | setting | read-out | dose | value
CCCCCCCCC(=O)N(C)C1C2CN3CCC(O2)C13 | H37Rv |  |  | BACTEC |  | inhibition | 12.5 µg/mL | 23%
CC1COc2c(N3CCN(C)CC3)c(F)cc3c(=O)c(C(=O)O)cn1c23 | 10 strains |  |  |  |  | MIC90 |  | 2 µg/mL
O=c1[nH]c2cc(F)c(F)cc2nc1CBr |  |  |  |  |  | EC50 |  | >12.5 µg/mL
CC(C)(C)Cc1nc(N)c2ncn([C@@H]3OC(COS(=O)(=O)NC(=O)CCCCC4SCC5NC(=O)NC54)[C@@H](O)[C@H]3O)c2n1.CCN(CC)CC | H37Rv |  |  | broth dilution |  | MIC |  | >100 µM
NNC(=O)c1ccncc1 | T13704 |  |  |  |  | MIC |  | 25 µM
CO/N=C1\CCCN(c2nc(=O)c3cc(C(F)(F)F)cc([N+](=O)[O-])c3s2)CC1 | H37Rv |  |  | resazurin |  | MIC90 |  | 0.06 µg/mL
COC1=C[C@@H](C)[C@@H]2C[C@H]3OC(=O)C[C@H]4[C@](C)(O)[C@@H]5OCO[C@H]5[C@H]([C@@]2(C)C1=O)[C@@]34C | H37Rv |  |  |  |  | inhibition | 12.5 µg/mL | 9%
O=C(Cc1cccs1)N/N=C/c1cccs1 | H37Rv (ATCC 27294) |  |  | resazurin |  | MIC |  | >100 µg/mL
COC(=O)c1ccccc1S(=O)(=O)NC(=O)Nc1nc(C)cc(C)n1 | T13704 |  |  |  |  | MIC |  | 1.6 µM

Blank or dashed fields: not listed here. A number after MIC or MFC names an inhibition level or a share of isolates. MIC bound comes from a single tested concentration. a–b is a range or a potency band. ECn is the concentration giving n% inhibition of infection, replication or growth. Percent inhibition refers to the dose given; in toxicity tests it is the harm to the cells.